We go through three molecules from patent US20210292392A1 (TSB THERAPEUTICS BEIJING, published 2021).

B1: P2B-2F6 (antibody, V domains shown)
VH: QVQLQESGPGLVKPSETLSLTCTVSGYSISSGYYWGWIRQPPGKGLEWIGSIYHSGSTYYNPSLKTRVTISVDTSKNQFSLKLSSVTAADTAVYYCARAVVGIVVVPAAGRRAFDIWGQGTMVTVSS
VL: QSALTQPPSASGSPGQSVTISCTGTSSDVGGYNYVSWYQQHPGKAPKLMIYEVSKRPSGVPDRFSGSKSGNTASLTVSGLQAEDEADYYCSSYAGSNNLVFGGGTKLTVLG
notes: human IgG1, lambda
B2: P2B-2G11 (antibody, V domains shown)
VH: EVQLVESGGGLVQPGRSLRLSCAASGFTFDDYAMHWVRQAPGKGLEWVSGISWNGGIIGYADSVKGRFTISRDNAKTSLYLQMNSLKPEDTALYYCAKVAGRGDYDYYYGMDVWGQGTTVTVSS
VL: QSVLTQPPSVSGAPGQRVTISCTGSSSNIGAGYDVHWYQQLPGTAPKLLIYGNNNRPSGVPDRFSGSKSGTSASLAITGLQAEDEADYYCQSYDSSLSGSVFGGGTKLTVLG
notes: human IgG1, lambda
B3: P2B-2G4 (antibody, V domains shown)
VH: QVQLVESGGGVVQPGRSLRLSCAASGFTFSSYGMHWVRQAPGKGLEWVAVIWYDGSNKYYADSVKGRFTISRDNSKNTLYLQMNSLRAEDTAVYYCARGAAMVWLDYWGQGTLVTVSS
VL: QSALTQPRSVSGSPGQSVTISCTGTSSDVGGYNYVSWYQQHPGKAPKLMIYDVSKRPSGVPDRFSGSKSGNTASLTISGLQAEDEADYYCCSYAGSYTFVVFGGGTKLTVLG
notes: human IgG1, lambda

This experiment concerns the target recombinant RBD of the spike protein of MERS-CoV (MERS-CoV, UniProt K9N5Q8 381-588). Briefly: SPR, RBD on CM5 chip.
Consider B1, for which the binding result is on record as “no binding (tested: not printed)”. For B2 the value was “no binding (tested: not printed)”; for B3, “no binding (tested: not printed)”.
